Results of unrelated studies side by side (data: NIAID ChemDB).

Shared fields: whole-cell or culture tests; organism: HIV-1; cell line: MT-4; measure: EC50

An empty or dashed field is not shown. Neighbouring rows are from separate reports. ECn is the concentration giving n% inhibition of infection, replication or growth.

SMILES | strain or isolate | changes | read by | result
CCCc1c(OC2CCC2)c2cc(Cl)ccc2[nH]c1=O | Nevirapine-resistant (RT Y181C) | RT-Y181C |  | >5 µM
Cc1cn([C@@H]2O[C@H](CO)C3(OS(=O)(=O)C=C3N)[C@H]2O)c(=O)[nH]c1=O | HE |  | cytopathic effect / trypan blue | >100 µg/mL
Nc1nc(=O)n(C2CC[C@@H](CO)O2)cc1[N+](=O)[O-] |  |  |  | >100 µM
O=C(NCc1ccc(F)cc1)c1nc(N2CCCCS2(=O)=O)c2cccnc2c1O | IIIB |  |  | 0.0087 µM
O=c1cc(Cc2ccc3ccccc3c2)nc(SC2CCCC2)[nH]1 | Nev^R(RT-Y181C) | RT-Y181C | cytopathic effect / MTT | >100 µM
O=C1c2c(O)c(=O)n(C3CCN(CC4CC4)CC3)c(=O)n2CCN1Cc1ccc(F)cc1 |  |  | p24 | <10 µM
COc1ccc(/C=C/C(=O)c2c(O)c3c(C)ccc(C(C)C)c3oc2=O)cc1OC | IIIB |  | virus yield | >28.15 µg/mL
Nc1ncnc2c1ncn2[C@H]1CC[C@@H](CO)O1 |  |  | cytopathic effect | 12 µM
Cc1cc2oc(=O)c(C(=O)/C=C/c3ccc(N(C)C)cc3)c(O)c2cc1Cl | IIIB |  | virus yield | >35.23 µg/mL
COCC(C)n1c(=O)c(O)c2n(c1=O)CCN(Cc1ccc(F)cc1)C2=O |  |  | p24 | <10 µM
C#CCO[C@]12CS(=O)(=O)O[C@@]13[C@@H](CN2)O[C@@H](n1cc(C)c(=O)[nH]c1=O)[C@@H]3O[Si](C)(C)C(C)(C)C | IIIB |  |  | >25 µM
O=c1cc(Cc2ccccc2)[nH]c(=O)[nH]1 | IIIB |  | cytopathic effect / MTT | >200 µM
CCCCO[C@]12CS(=O)(=O)O[C@@]13C(CN2)O[C@@H](n1cc(C)c(=O)[nH]c1=O)[C@@H]3O[Si](C)(C)C(C)(C)C | IIIB |  |  | >10 µM
CC(C)C(O)[C@@H]1CC(NC(=O)[C@H](OCc2ccccc2)[C@H](O)[C@@H](O)[C@@H](OCc2ccccc2)C(=O)N[C@@H]2CO[C@H](C(O)C(C)C)C2)CO1 |  |  | cytopathic effect / XTT | >10 µM
CCc1c(Cc2ccc(OC)c(OC)c2)n(COCCc2ccccc2)c(=O)[nH]c1=O | EFVR | K103R/V179D/P225H | MTT | >73 µM
N#Cc1cc(Cl)cc(Oc2c(Br)ccc(CC(=O)Nc3ccc(S(N)(=O)=O)cc3Cl)c2F)c1 |  | V179F/Y181C |  | 0.0008 µM
Nc1nccc2nn([C@@H]3O[C@H](CO)[C@@H](O)[C@H]3O)nc12 |  |  | cytopathic effect | >358 µM
Nc1cn([C@H]2CC[C@@H](CO)O2)c(=O)nc1N |  |  |  | >100 µM
Cc1ccc(C)c(Cn2c(Sc3ccccc3)cc(=O)[nH]c2=O)c1 | NL4-3 |  | MTT | 1.26 µg/mL
CCCc1c(OCC2CCCCC2)c2cc(Cl)ccc2[nH]c1=O | Nevirapine-resistant (RT Y181C) | RT-Y181C |  | 0.798 µM
CCc1c(Cc2cc(C)cc(C)c2)n(COCC2CC=CCC2)c(=O)[nH]c1=O | IIIB |  | cytopathic effect / MTT | 0.02 µM
Cc1cn([C@@H]2O[C@@H]3CN[C@@]4(OCCO)CS(=O)(=O)O[C@@]34[C@H]2O[Si](C)(C)C(C)(C)C)c(=O)[nH]c1=O | IIIB |  |  | 9.5 µM
Cc1cc(C)cc(S(=O)(=O)c2c(C(=O)NS(=O)(=O)c3ccccc3)[nH]c3ccc(Cl)cc23)c1 |  | K103N | MTT | 3.43 µM
CCCCCOc1nc(Cc2ccccc2)c(C)c(=O)[nH]1 | IIIB |  | cytopathic effect / MTT | 35 µM
CC(C)[C@]12C=C[C@](C)(CC1)[C@H]1C(=O)N(NC(=O)Nc3ccccc3)C(=O)[C@H]12 | IIIB |  | cytopathic effect / MTT | >100 µM
CCCc1c(Cc2cc(C)cc(C)c2)n(COC2C=CCCC2)c(=O)[nH]c1=O | NNRTI-resistant (RT Y181C) N119 | RT-Y181C | cytopathic effect / MTT | >100 µM
COc1ccc(NC(=O)NN2C(=O)[C@H]3[C@H]4C=C(C)[C@H](C[C@@H]4C(C)C)[C@H]3C2=O)cc1 | IIIB |  | cytopathic effect / MTT | >46 µM
CC(C)Cc1c(OCC2CCC2)c2cnccc2[nH]c1=O |  |  |  | 0.07 µM
CC(O)[C@@H]1CC(NC(=O)[C@H](OCc2ccccc2)[C@H](O)[C@@H](O)[C@@H](OCc2ccccc2)C(=O)N[C@@H]2CO[C@H](C(C)O)C2)CO1 |  |  | cytopathic effect / XTT | >10 µM
CCc1c(Cc2ccccc2)n(COCCCc2ccccc2)c(=O)[nH]c1=O | IIIB |  | MTT | 0.2 µM
CCCc1c(OC2CCCC2)c2cc(C#N)ccc2[nH]c1=O | Nevirapine-resistant (RT Y181C) | RT-Y181C |  | 2.36 µM
Cc1cn([C@@H]2O[C@@H]3CN[C@@]4(OCc5ccccc5)CS(=O)(=O)O[C@@]34[C@H]2O[Si](C)(C)C(C)(C)C)c(=O)[nH]c1=O | IIIB |  |  | >10 µM
CCCc1c(Cc2cc(C)cc(C)c2)n(COCC2CC=CCC2)c(=O)[nH]c1=O | NNRTI-resistant (RT K103N Y181C) A17 | RT-K103N Y181C | cytopathic effect / MTT | >100 µM
COc1ccc(/C=C/C(=O)c2c(O)c3cc(Cl)c(C)cc3oc2=O)cc1OC | IIIB |  | virus yield | >59.1 µg/mL
CN(C)C(=O)CC1Cn2c(c(O)c(=O)n(C3CCCC3)c2=O)C(=O)N1Cc1ccc(F)cc1 |  |  | p24 | <10 µM
O=C(O)c1ccc(Nc2ccc3ccccc3c2O)cc1 |  |  | MTT | >70.07 µM
CC1=C(C)[C@]2(C)C(C)[C@@]1(C)[C@@H]1C(=O)N(NC(=O)Nc3ccccc3)C(=O)[C@@H]12 | IIIB |  | cytopathic effect / MTT | >42 µM
CCCOc1nc(Cc2ccccc2)cc(=O)[nH]1 | IIIB |  | cytopathic effect / MTT | 32 µM
CO[C@]12CS(=O)(=O)O[C@@]13C(CN2)O[C@@H](n1cc(C)c(=O)[nH]c1=O)[C@@H]3O[Si](C)(C)C(C)(C)C | IIIB |  |  | 8.4 µM
CCCS(=O)(=O)NC(=O)c1[nH]c2ccc(Cl)cc2c1S(=O)(=O)c1cc(C)cc(C)c1 |  | L100I | MTT | 1.41 µM
CCCc1c(OCC2CCC2)c2cc(F)ccc2[nH]c1=O |  |  |  | 0.035 µM
Cc1cc2oc(=O)c(C(=O)/C=C/c3cccc(Oc4ccccc4)c3)c(O)c2cc1Cl | IIIB |  | virus yield | >51.6 µg/mL
Nc1nc(=O)n([C@@H]2C[C@H](O)[C@@H](CO)O2)cc1[N+](=O)[O-] |  |  |  | >100 µM
Nc1nccc2nn([C@H]3C[C@H](O)[C@@H](CO)O3)nc12 |  |  | cytopathic effect | >396 µM
Cc1cn([C@@H]2O[C@@H]3CN[C@@]4(OCCOc5ccccc5)CS(=O)(=O)O[C@@]34[C@H]2O[Si](C)(C)C(C)(C)C)c(=O)[nH]c1=O | IIIB |  |  | >5 µM
CC(C)n1c(=O)c(O)c2n(c1=O)CCN(Cc1cccc3ccccc13)C2=O |  |  | p24 | <10 µM
CC1=C[C@@H]2[C@@H]3C(=O)N(NC(=S)NC4CCCCC4)C(=O)[C@@H]3[C@H]1C[C@@H]2C(C)C | IIIB |  | cytopathic effect / MTT | >47 µM
Cc1ccc(C(C)C)c2oc(=O)c(C(=O)/C=C/c3ccc(N(C)C)cc3)c(O)c12 | IIIB |  | virus yield | >125 µg/mL
Cc1cc(C)cc(S(=O)(=O)c2c(C(=O)NS(=O)(=O)C(F)(F)F)[nH]c3ccc(Cl)cc23)c1 |  | Y188L | MTT | >253 µM
COP(=O)(c1cc(C)cc(CCC#N)c1)c1c(C(N)=O)[nH]c2ccc(Cl)c(F)c12 | BH10 |  | cytopathic effect | 0.0003 µM
CC(c1cccc2ccccc12)n1c(=O)c(O)c2n(c1=O)CCN(Cc1ccc(F)cc1)C2=O |  |  | p24 | <10 µM
CCN1C[C@H](C)n2c(c(O)c3c(=O)n(Cc4ccc(F)c(Cl)c4)nc(N4CCN(C)S4(=O)=O)c32)C1=O | IIIB |  |  | 0.0019 µM
CCCc1c(Cc2cc(C)cc(C)c2)n(COC/C=C/c2ccccc2)c(=O)[nH]c1=O | NNRTI-resistant (RT K103N Y181C) A17 | RT-K103N Y181C | cytopathic effect / MTT | >100 µM
CCCc1c(SCC2CCC2)c2cc(F)ccc2[nH]c1=O |  |  |  | 0.017 µM
CCOCn1c(Cc2ccc(C)cc2)c(CC)c(=O)[nH]c1=O | IIIB |  | MTT | 5.3 µM
COc1ccc(/C=C/C(=O)c2c(O)c3cc(Cl)c(C)cc3oc2=O)cc1 | IIIB |  | virus yield | >33.8 µg/mL
Cc1cc(C)cc(S(=O)(=O)c2c(C(=O)NS(=O)(=O)c3ccc(F)cc3)[nH]c3ccc(Cl)cc23)c1 | RES056 |  | MTT | >121 µM
Cc1c(Cc2ccccc2)nc(OC2CCCCC2)[nH]c1=O | IIIB |  | cytopathic effect / MTT | 4.7 µM
Cc1cn([C@@H]2O[C@@H]3CN[C@H]4CS(=O)(=O)O[C@]43[C@H]2O[Si](C)(C)C(C)(C)C)c(=O)[nH]c1=O | IIIB |  |  | 30.4 µM
O=C(NC1CO[C@H](CO)C1)[C@H](OCc1ccccc1)[C@H](O)[C@@H](O)[C@@H](OCc1ccccc1)C(=O)N[C@H]1c2ccccc2C[C@H]1O |  |  | cytopathic effect / XTT | 1.12 µM
Cc1cn([C@@H]2O[C@@H]3CN[C@@]4(OCC(C)C)CS(=O)(=O)O[C@@]34[C@H]2O)c(=O)[nH]c1=O | IIIB |  |  | >250 µM
CCc1c(Cc2cc(C)cc(C)c2)n(COC2C=CCCC2)c(=O)[nH]c1=O | IIIB |  | cytopathic effect / MTT | 0.04 µM
Nc1cn([C@H]2C[C@H](O)[C@@H](CO)O2)c(=O)nc1N |  |  |  | >100 µM
COc1ccc(/C=C/C(=O)c2c(O)c3c(C)ccc(C(C)C)c3oc2=O)cc1 | IIIB |  | virus yield | >125 µg/mL
O=C1c2c(O)c(=O)n(C3Cc4ccccc4C3)c(=O)n2CCN1Cc1ccc(F)cc1 |  |  | p24 | <10 µM
Cc1ccc(C(C)C)c2oc(=O)c(C(=O)/C=C/c3ccccc3[N+](=O)[O-])c(O)c12 | IIIB |  | virus yield | >3.06 µg/mL
Nc1nccc2c1nnn2[C@H]1C[C@H](O)[C@@H](CO)O1 |  |  | cytopathic effect | >396 µM
CCc1c(Cc2cc(C)cc(C)c2)n(COCC2CC2)c(=O)[nH]c1=O | N119 | Y181C | MTT | 5.1 µM
CCCc1c(OC2CCCC2)c2cc(Br)ccc2[nH]c1=O |  |  |  | 0.07 µM
Cc1cc(C)cc(S(=O)(=O)c2c(C(=O)NS(=O)(=O)c3ccc(F)cc3F)[nH]c3ccc(Cl)cc23)c1 | RES056 |  | MTT | >167 µM
CC(C)c1c(SCC2CCC2)c2cc(F)ccc2[nH]c1=O | Nevirapine-resistant (RT Y181C) | RT-Y181C |  | 0.068 µM
CCOCn1c(Sc2cccc(N)c2)cc(=O)[nH]c1=O | NL4-3 |  | MTT | 0.4 µg/mL
CCc1c(Cc2ccc(C)cc2)n(COCCc2ccccc2)c(=O)[nH]c1=O | A17 | K103N/Y181C | MTT | >60 µM
Cc1ccc(C(C)C)c2oc(=O)c(C(=O)/C=C/c3ccccc3)c(O)c12 | IIIB |  | virus yield | >12.75 µg/mL
Cc1cn([C@@H]2O[C@@H]3CN[C@@]4(OCC5CCOC5)CS(=O)(=O)O[C@@]34[C@H]2O[Si](C)(C)C(C)(C)C)c(=O)[nH]c1=O | IIIB |  |  | >10 µM